SI and SIEboV-GP data for seven molecules are collected here from publication PMC8070564, “Synthesis and Antiviral Activity of Camphene Derivatives against Different Types of Viruses” (Molecules, 2021).

Data set [1] concerns rVSV-ΔG-Gn-Gc. The data set is classed as cell-based, Hantaan virus strain 76–118. Conditions: ratio CC50 / IC50.
For data set [2], the system named is rVSV-ΔG-EboV-GP. The format is cell-based, Ebola pseudotype viruses.

With `CC1(C)[C@@H]2CC[C@@]1(C)[C@H](OCCN1CCCC1)C2` (racemic) [Compound 2a, (±)-1-(2-(1,7,7-Trimethylbicyclo(2.2.1)heptan-2-yloxy)ethyl)pyrrolidine], in data set [1], the SI is 39. The molecule further registered an SIEboV-GP in data set [2] of 4166.
For `CC1(C)[C@@H]2CC[C@@]1(C)[C@H](OCCN1CCCCC1)C2` (racemic) [Compound 3a, (±)-1-(2-(1,7,7-Trimethylbicyclo(2.2.1)heptan-2-yloxy)ethyl)piperidine], in that order: 30 and 150.
In data set [2], `CC1(C)[C@@H]2CC[C@@]1(C)[C@H](OCCCN1CCCCC1)C2` (racemic) [Compound 3b, (±)-1-(3-(1,7,7-Trimethylbicyclo(2.2.1)heptan-2-yloxy)propyl)piperidine] came in with an SIEboV-GP of 4.
Take `CC1CCN(CCO[C@@H]2C[C@H]3CC[C@]2(C)C3(C)C)CC1` (racemic) [Compound 4a, (±)-4-Methyl-1-(2-(1,7,7-trimethylbicyclo(2.2.1)]heptan-2-yloxy)ethyl)piperidine]: in data set [2], the SIEboV-GP worked out at 357.
The same measure, in the same setting: under `CC1(C)[C@@H]2CC[C@@]1(C)[C@H](OCCCN1CCN(Cc3ccccc3)CC1)C2` (racemic) [Compound 6b, (±)-1-Benzyl-4-(3-(1,7,7-trimethylbicyclo(2.2.1)heptan-2-yloxy)propyl)piperazine] stands 2.
Regarding `CC1(C)[C@@H]2CC[C@@]1(C)[C@H](OCCN1CCOCC1)C2` (racemic) [Compound 7a, (±)-4-(2-(1,7,7-Trimethylbicyclo(2.2.1)heptan-2-yloxy)ethyl)morpholine], in data set [1], the SI was found to be 78. The SIEboV-GP in data set [2] stood at 1433.
For `CC1(C)[C@@H]2CC[C@@]1(C)[C@H](OCCN1CCCCCC1)C2` (racemic) [Compound 8a, (±)-1-(2-(1,7,7-Trimethylbicyclo(2.2.1)heptan-2-yloxy)ethyl)azepane], the SIEboV-GP in data set [2] is recorded as 6.
